For one experiment, the target named is HXBc2 gp120 (Human immunodeficiency virus type 1 group M subtype B, UniProt P04578). As to the kind of experiment: Surface-plasmon resonance binding, HXBc2 gp120. Set-up: species or system HIV-1.
Another experiment has as its system HIV-1 gp120. The note with it: cited from earlier work.
The target in a further experiment is YU2 gp120 (Human immunodeficiency virus type 1 group M subtype B, UniProt P35961). Kind of experiment: Surface-plasmon resonance binding, YU2 gp120. Set-up: species or system HIV-1.
For experiment [1], the system named is diverse panel of envelope clones. As to the kind of experiment: Viral neutralization over the whole panel of isolates. It is filed as cell-based, HIV-1 group M and SIVcpz.

One may read the Kd as a measure of binding affinity in units of concentration. At HXBc2 gp120, `CC(C)C[C@@H]1NC(=O)CNC(=O)[C@H](CC(C)C)NC(=O)[C@H](CO)NC(=O)[C@H](CCCCN)NC(=O)[C@@H]2CSSC[C@@H](C(=O)N[C@H](C(N)=O)C(C)C)NC(=O)[C@H](C)NC(=O)[C@@H]3CSSC[C@H](NC(=O)[C@H](Cc4ccccc4)NC(=O)[C@H](Cc4c[nH]cn4)NC(=O)[C@H](CC(C)C)NC(=O)[C@H](CC(N)=O)NC(=O)CCSSC[C@H](NC(=O)[C@H](CCCCN)NC(=O)CNC(=O)[C@H](CC(C)C)NC1=O)C(=O)N[C@@H](C)C(=O)NCC(=O)N[C@@H](CO)C(=O)N[C@@H](Cc1ccc(-c4ccccc4)cc1)C(=O)N3)C(=O)N[C@@H](CCC(N)=O)C(=O)N[C@@H](CC(C)C)C(=O)N[C@@H](CCCNC(=N)N)C(=O)N2` [CD4M33] had a Kd of 10.8 ± 0.14 nM. For the same compound, the “affinity to gp120” value with HIV-1 gp120 (ref [23]) is “nanomolar affinity”. In the experiment with HIV-1 gp120 (vs phenyl derivative (printed [Phe^23]M47), ref [24]), the “affinity enhancement by the biphenyl moiety over phenyl derivative” value is recorded as “about 10 fold”.
Take `CC(C)C[C@@H]1NC(=O)CNC(=O)[C@H](CC(C)C)NC(=O)[C@H](CO)NC(=O)[C@H](CCCCN)NC(=O)[C@@H]2CSSC[C@@H](C(=O)N[C@H](C(N)=O)C(C)C)NC(=O)[C@H](C)NC(=O)[C@@H]3CSSC[C@H](NC(=O)[C@H](Cc4ccccc4)NC(=O)[C@H](Cc4c[nH]cn4)NC(=O)[C@H](CC(C)C)NC(=O)[C@H](CC(N)=O)NC(=O)CCSSC[C@H](NC(=O)[C@H](CCCNC(=N)N)NC(=O)CNC(=O)[C@H](CC(C)C)NC1=O)C(=O)N[C@@H](C)C(=O)N1CCC[C@@H]1C(=O)N[C@@H]([C@@H](C)O)C(=O)N[C@@H](Cc1ccccc1)C(=O)N3)C(=O)N[C@@H](CCC(N)=O)C(=O)N[C@@H](CC(C)C)C(=O)N[C@@H](CCCNC(=N)N)C(=O)N2` [[Phe^23]M47]: the Kd on HXBc2 gp120 amounted to 6.24 ± 0.1 nM; on YU2 gp120, 3.87 ± 0.1 nM. In addition, in experiment [1], the “intercept potency of ΔΔG^N vs genetic distance, reduction” value is recorded as “about 0.5 kcal/mol”.

The values above are taken from publication PMC2625307 (Journal of molecular biology, 2008).
